Tests used:
Experiment in all cases: FACS
[1] = biological target: mini-H3 cluster1 + 2 + 3 + 4 + 5 + 6 + 7-N405E (influenza A virus H3N2, UniProt Q38SQ8 18-566)
[2] = biological target: H1 mini-HA A/Puerto Rico/8/1934 (influenza A virus H1N1, UniProt P03452 18-565)
[3] = biological target: H1-PR8-dH1 (Steel et al. 2010) (influenza A virus H1N1, UniProt P03452 18-565)
[4] = biological target: H1 FL HA A/Puerto Rico/8/1934 (influenza A virus H1N1, UniProt P03452 18-565)

B1: CR9114 (antibody, V domains shown)
VH: QVQLVQSGAEVKKPGSSVKVSCKSSGGTSNNYAISWVRQAPGQGLDWMGGISPIFGSTAYAQKFQGRVTISADIFSNTAYMELNSLTSEDTAVYFCARHGNYYYYSGMDVWGQGTTVTVSS
VL: SYVLTQPPAVSGTPGQRVTISCSGSDSNIGRRSVNWYQQFPGTAPKLLIYSNDQRPSVVPDRFSGSKSGTSASLAISGLQSEDEAEYYCAAWDDSLKGAVFGGGTQLTVL
- binding result [1]: no binding (tested: 5 microgram/ml)
- binding result [2]: binds
- binding result [3]: no binding (tested: 5 microgram/ml)
- binding result [4]: binds

— US20140357845A1 (published 2014)
